Compound potency records, mixed from different reports. Data source: NIAID ChemDB in PubChem.

Shared fields: tests in culture; agent: Candida albicans; measure: MIC

Blank or dashed fields: not listed here.

SMILES	strain	result
N=C(N)c1ccc(NC(=O)c2cc3cc(C(=N)N)ccc3o2)cc1		>60 µg/mL
N/C(=N\NC(CC(=O)c1ccc(Cl)cc1)c1ccncc1)c1ccccn1	C873	80 µg/mL
C=C(C)C1OC2=C(C(=O)c3ccccc3C2=O)C1O		40 µg/mL
Nc1ncnc2c1ncn2[C@@H]1O[C@H](C(=O)O)[C@@H](NC(=O)[C@@H](N)Cc2cnc[nH]2)[C@H]1O	FP633	12.5 µg/mL
Cc1nc2c(s1)C(=O)C(Sc1ccccc1)=C(O)C2=O	ATCC20231	>100 µg/mL
Nc1ccc(-c2c[nH]cc2C(c2ccc(Cl)cc2Cl)n2ccnc2)cc1		28 µg/mL
CN(C)C(=O)c1ccc2nc(NC(=O)C3CCC(CN)CC3)sc2c1		0.39 µM
CC(C)C1C[C@H]2C[C@]3(C=O)[C@@H]4CC[C@@H](C)[C@H]4C[C@@]2(CO[C@H]2CN(C4CC4)C[C@@H](C)O2)[C@]13C(=O)O	CL-236	0.008 µg/mL
N=C(N)c1ccc2[nH]c(/C=C/c3cc4cc(C(=N)N)ccc4s3)cc2c1		>60 µg/mL
O=C1C=C(C=Cc2ccc([N+](=O)[O-])cc2)c2ccc(OCCCn3ccnc3)cc2C1	ATCC 24433	12.5 µg/mL
CC1=C(Nc2cccc(Br)c2)C(=O)c2sc(C)nc2C1=O	ATCC20231	>100 µg/mL
C=C(C)c1cc2c(o1)C(=O)c1c(O)cccc1C2=O		40 µg/mL
CCCOc1ccccc1/C=N/NC(=O)c1ccccc1SSc1ccccc1C(=O)N/N=C/c1ccccc1OCCC		250 µg/mL
N/C(=N\NC(CC(=O)c1ccccc1)c1cccnc1)c1ccccn1	C873	>160 µg/mL
C=C1CO[C@H]2[C@@H](C)OC(OC[C@@]34C[C@H]5[C@H](C)CC[C@@H]5[C@@]5(C=O)C[C@@H]3C=C(C(C)C)[C@@]45C(=O)O)C[C@@H]12	Isolate CL-245 (fluconazole-resistant)	<0.01 µg/mL
C=CCN1C[C@H](OC[C@@]23C[C@@H]4[C@H](C)CC[C@H]4[C@@]4(C=O)C[C@@H]2CC(C(C)C)[C@@]34C(=O)O)O[C@H](C)C1	4711E	0.004 µg/mL
COc1ccc(/C(=N\OC(=O)c2ccccc2)c2oc3ccccc3c2C)cc1		>512 µg/mL
Nc1ncnc2c1ncn2[C@@H]1O[C@H](C(=O)O)[C@@H](NC(=O)C(N)CCSc2ccccc2)[C@H]1O	FP633	6.2 µg/mL
COc1ccc(/C(=N/O)c2oc3ccccc3c2C)cc1		4 µg/mL
N/C(=N\NC(CC(=O)c1ccc(Cl)c(Cl)c1)c1ccccn1)c1ccccn1	C873	20 µg/mL
CCOC(=O)N1CCC(Br)(C(=O)O)CC1	ATCC10259	100 µg/mL
C=CC(C)(/C=C\c1ccc(O)cc1)c1ccc(O)cc1	ATCC 10231	50 µg/mL
N/C(=N\NC(CC(=O)c1ccc(-c2ccccc2)cc1)c1cccnc1)c1ccccn1	C873	>160 µg/mL
Clc1ccc(-n2ccc(C(c3ccccc3)n3ccnc3)c2)cc1		0.7 µg/mL
Cc1ccc(/C(=N/O)c2oc3ccccc3c2C)cc1		4 µg/mL
COC(=O)c1c(C)oc2cc(C(=O)C(Cl)Cl)c(O)c(Cl)c12	ATCC 10231	100 µg/mL
Cc1c(/C(=N/OCc2ccc(Cl)cc2)c2ccc(Cl)cc2)oc2ccccc12		>512 µg/mL
COc1ccc(C(Cc2ccccc2F)n2ccnc2)cc1		49 µg/mL
Brc1ccc2[nH]c3c4ccccc4nnc3c2c1		>200 µM
O=C(O)C1=CCCC1	ATCC10259	500 µg/mL
C[C@@H](c1ncncc1F)[C@](O)(Cn1cncn1)c1ccc(F)cc1F	Isolate 5810	0.03 µg/mL
COc1ccc(C[C@H](NC(=O)NN)C(=O)N[C@H]2[C@@H](O)[C@H](n3cnc4c(N)ncnc43)O[C@@H]2C(=O)NN)cc1	FP633	>100 µg/mL
CCCCCCCCC(=O)[C@H]1O[C@H]1C(=O)N(CC)CC	F2 sensitive	6.25 µg/mL
COCCOCCOCCOCCOCCOCCNC(=O)[C@H]1[C@@H]2C[C@@H](O[C@@H]3O[C@H](C)[C@@H](O)[C@H](N)[C@@H]3O)/C=C/C=C/C=C/C=C/C=C/C=C/C=C/[C@H](C)[C@@H](O)[C@H](C)[C@H](C)OC(=O)C[C@H](O)C[C@H](O)[C@@H](O)CC[C@H](O)C[C@H](O)C[C@](O)(C[C@@H]1O)O2	Isolate 92-889	3.03 µg/mL
O=C(N/N=C/c1cc([N+](=O)[O-])ccc1O)c1ccc(I)cc1	ATCC 2901	>25 µg/mL
COC(/C=C/c1ccccc1)=C1/C(=O)C=C(C)C1=O	ATCC 90028	1.56 µg/mL
O=C1C=C(C=Cc2ccc(Cl)cc2)c2ccc(OCCCn3ccnc3)cc2C1	ATCC 24433	25 µg/mL
CCCCC/C=C/CCC(=O)[C@H]1O[C@H]1C(=O)NCc1ccccc1	SC5314	12.5 µg/mL
CCCCCCCCCCCCCC[C@H](N)C(=O)N[C@H](C(=O)O)C1O[C@@H](n2ccc(=O)[nH]c2=O)[C@H](O)[C@@H]1O	H317	>320 µg/mL
O=C(O)/C1=C/CCCCCCCCCC1	ATCC10259	500 µg/mL
N/C(=N\NC(CC(=O)c1ccccc1)c1ccncc1)c1ccccn1	C873	80 µg/mL
O=C(CCNCc1ccc(-c2ccccc2)cc1)Nc1ccc2nc(NC(=O)C3CCCCC3)sc2c1		4 µM
Cc1nc2c(s1)C(=O)C(Sc1cccc(F)c1)=C(O)C2=O	ATCC20231	>100 µg/mL
C=C=CCN1C[C@H](OC[C@@]23C[C@@H]4[C@H](C)CC[C@H]4[C@@]4(C=O)C[C@@H]2CC(C(C)C)[C@@]34C(=O)O)O[C@H](C)C1	4711E	≤0.001 µg/mL
CCCn1cc(-c2ccc(Cl)cc2)c(C(c2ccc(Cl)cc2Cl)n2ccnc2)c1		1.7 µg/mL
CN(Cc1cccc2ccccc12)/N=C\c1cccc2ccccc12		>64 µg/mL
Cc1c(O)cccc1C(=O)N[C@@H](CSc1ccccc1)[C@H](O)CN1C[C@H]2CCCC[C@H]2C[C@H]1C(=O)NC(C)(C)C	I148A	>64 µg/mL
COc1ccc(C=CC2=CC(=O)Cc3cc(OCCCn4ccnc4)ccc32)cc1	ATCC 24433	>200 µg/mL
C[C@@H](c1ncncc1F)[C@](O)(Cn1cncn1)c1ccc(F)cc1F	572-27	8 µg/mL
Clc1ccc(C(c2ccn(-c3ccc(Cl)cc3)c2)n2ccnc2)cc1		7.3 µg/mL
CC(Cc1cc2cc(C(=N)N)ccc2o1)c1cc2cc(C(=N)N)ccc2o1		3 µg/mL
Cc1ccc(/C=N\N(C)Cc2cccc3ccsc23)cc1		>64 µg/mL
N=C(N)c1ccc(-c2sc3ccc(C(=N)N)cc3c2N)cc1		30 µg/mL
CCn1cc(-c2ccc(Cl)c(Cl)c2)c(C(c2ccc(C)cc2)n2ccnc2)c1		0.47 µg/mL
C/C=C/C=C(/C)C(=O)O[C@H]1[C@H](O)[C@H](OCC23C4C=C(C(C)C)C2(C(=O)O)C(C=O)(C4)[C@@H]2CC[C@@H](C)[C@H]23)O[C@H](C)[C@H]1OC	2402E	0.06 µg/mL
CC1=CC(=O)c2sc(C)nc2C1=O	ATCC20231	>100 µg/mL
COc1cc(/C=N\N(C)Cc2cccc3ccccc23)ccc1O		>64 µg/mL
Cn1cc(-c2ccc(-n3cccc3)cc2)c(C(c2ccc(Cl)cc2Cl)n2ccnc2)c1		0.62 µg/mL
CC(C)C(=O)Nc1nc2ccc(NC(=O)[C@@H]3CCC[C@@H](NCc4ccc5ccccc5c4)C3)cc2s1		3.13 µM
NNC(=O)c1cc(Cl)cc(Cl)c1SSc1c(Cl)cc(Cl)cc1C(=O)NN		250 µg/mL
CC(C)(C)C1CC=C(C(=O)O)CC1	ATCC10259	1000 µg/mL
Clc1ccc2[nH]c3c4ccccc4nnc3c2c1		>200 µM
N=C(N)c1ccc(/C=C/C=C/C=C/c2cc3cc(C(=N)N)ccc3o2)cc1		30 µg/mL
O=C(Nc1nc2ccc(NC(=O)[C@@H]3CCC[C@@H](NCc4ccc5ccccc5c4)C3)cc2s1)C1CCCC1		0.78 µM
N/C(=N\NC(CC(=O)c1cccc(Cl)c1)c1cccnc1)c1ccccn1	C873	80 µg/mL
CN(C)c1ccc(CSCC(N)C(=O)N[C@H]2[C@@H](O)[C@H](n3cnc4c(N)ncnc43)O[C@@H]2C(=O)O)cc1	FP633	0.8 µg/mL
OC(Cn1cncn1)(Cn1cncn1)c1ccc(F)cc1F	1001	50 µg/mL
CCCCCCCCC(O)[C@H]1O[C@H]1C(=O)NC1CC1	F2 sensitive	6.25 µg/mL
CN(Cc1cccc2ccsc12)/N=C\c1ccc(C(C)(C)c2ccccc2)cc1		>64 µg/mL
O=C(N/N=C/c1ccccc1OCCCl)c1ccccc1SSc1ccccc1C(=O)N/N=C/c1ccccc1OCCCl		>250 µg/mL
Cc1ccc(/C(=N\OCc2ccc(Cl)cc2)c2oc3ccccc3c2C)cc1		16 µg/mL
N=C(N)c1ccc2sc(/C=C/c3cc4cc(C(=N)N)ccc4s3)cc2c1		>60 µg/mL
C=C(C)C1OC2=C(C(=O)c3cccc(O)c3C2=O)C1O		10 µg/mL
N/C(=N\NC(CC(=O)c1ccc(-c2ccccc2)cc1)c1ccncc1)c1ccccn1	C873	>160 µg/mL
c1ccc2c(c1)nnc1c3ccccc3[nH]c21		150 µM
CC1=C(Nc2ccc(Cl)cc2)C(=O)c2sc(C)nc2C1=O	ATCC20231	50 µg/mL
O=C(N/N=C/c1ccc2ccccc2n1)c1ccccc1SSc1ccccc1C(=O)N/N=C/c1ccc2ccccc2n1		250 µg/mL
COc1ccc(C(Cc2cccc(Cl)c2)n2ccnc2)cc1		44 µg/mL
O=C(Nc1nc2ccc(NC(=O)[C@@H]3CCC[C@@H](NCc4ccc5ccccc5c4)C3)cc2s1)C1CC1		3.13 µM

10 of the rows above, restated:

SMILES,strain,result
O=C(Nc1nc2ccc(NC(=O)[C@@H]3CCC[C@@H](NCc4ccc5ccccc5c4)C3)cc2s1)C1CC1,,3.13 µM
CC(Cc1cc2cc(C(=N)N)ccc2o1)c1cc2cc(C(=N)N)ccc2o1,,3 µg/mL
CCOC(=O)N1CCC(Br)(C(=O)O)CC1,ATCC10259,100 µg/mL
CC1=C(Nc2cccc(Br)c2)C(=O)c2sc(C)nc2C1=O,ATCC20231,>100 µg/mL
CN(C)C(=O)c1ccc2nc(NC(=O)C3CCC(CN)CC3)sc2c1,,0.39 µM
OC(Cn1cncn1)(Cn1cncn1)c1ccc(F)cc1F,1001,50 µg/mL
COCCOCCOCCOCCOCCOCCNC(=O)[C@H]1[C@@H]2C[C@@H](O[C@@H]3O[C@H](C)[C@@H](O)[C@H](N)[C@@H]3O)/C=C/C=C/C=C/C=C/C=C/C=C/C=C/[C@H](C)[C@@H](O)[C@H](C)[C@H](C)OC(=O)C[C@H](O)C[C@H](O)[C@@H](O)CC[C@H](O)C[C@H](O)C[C@](O)(C[C@@H]1O)O2,Isolate 92-889,3.03 µg/mL
Cc1ccc(/C=N\N(C)Cc2cccc3ccsc23)cc1,,>64 µg/mL
CC1=CC(=O)c2sc(C)nc2C1=O,ATCC20231,>100 µg/mL
Cc1c(/C(=N/OCc2ccc(Cl)cc2)c2ccc(Cl)cc2)oc2ccccc12,,>512 µg/mL

Neighbouring rows are from separate reports.